Test results published in publication PMC7077018, “Gas chromatography-mass spectrometry analysis, phytochemical screening and antiprotozoal effects of the methanolic Viola tricolor and acetonic Laurus nobilis extracts” (BMC Complementary Medicine and Therapies, 2020).

Columns and labels:
Test in all cases: Babesia fluorescent (SYBR Green I) in vitro growth inhibition assay
Assay type in all cases: cell-based
B. caballi = tested on: B. caballi
Text: (§1) For the in vitro experiments, a German strain B. divergens, Argentine strain B. bigemina, Texas strain B. bovis, were cultivated in cattle RBCs, while USDA strains of equine piroplasm parasites (T. equi and B. caballi) were maintained in horse RBCs. […] For conducting the in vivo study, female BALB/c mice, aged six-week, obtained from CLEA Japan were infected with B. microti Munich strain [1]. […] GIT medium replenished with 40% horse serum was used as a growth medium for B. caballi parasite culture. To ensure free-bacterial contamination, all medium was supplemented with amphotericin B (0.15 μg/mL) (Sigma-Aldrich, USA), streptomycin (60 U/mL) and penicillin G (60 U/mL). The Babesia fluorescent assay was carried out on the in vitro culture as previously reported elsewhere. […] On day four of culture, an aliquot (100 μL) of lysis buffer was added to 0.2 μL/mL SG1 per well; subsequently, it was covered with aluminum foil to prevent exposure to light. After a 6-h incubation at 37 °C, fluorescence readings were acquired on a spectrofluorimeter (Fluoroskan Ascent, Thermo Fisher Scientific, USA) with a 485 nm excitation wavelength and a 518 nm emission wavelength. The IC50 values of the two extracts, DMA and ATV were established from the in vitro growth inhibition by nonlinear regression curve fit on a GraphPad Prism (GraphPad Software Inc., USA). While for in vivo, the significant variations (p < 0.05) among group mean values on parasitemia and one-way ANOVA Tukey's test in GraphPad Prism version 5.0 was used to analyze hematology profiles in mice infected with B. microti.

B. divergens = tested on: B. divergens
Text: as §1

B. bigemina = tested on: B. bigemina
Text: as §1

B. bovis = tested on: B. bovis
Text: as §1

SMILES: CC(=O)NCC(=O)O.CC(=O)NCC(=O)O.N=C(N)c1ccc(N=NNc2ccc(C(=N)N)cc2)cc1 [DMA, diminazene aceturate]
- Selective indices HFF (B. caballi; EC50 HFF / IC50 B. caballi): ˃ 33333.3
- Selective indices MDBK (B. caballi; EC50 MDBK / IC50 B. caballi): ˃ 33333.3
- Selective indices NIH/3 T3 (B. caballi; EC50 NIH/3 T3 / IC50 B. caballi): ˃ 33333.3
- Selective indices HFF (B. divergens; EC50 HFF / IC50 B. divergens): ˃ 285.7
- Selective indices MDBK (B. divergens; EC50 MDBK / IC50 B. divergens): ˃ 285.7
- Selective indices NIH/3 T3 (B. divergens; EC50 NIH/3 T3 / IC50 B. divergens): ˃ 285.7
- Selective indices HFF (B. bigemina; EC50 HFF / IC50 B. bigemina): ˃ 909
- Selective indices MDBK (B. bigemina; EC50 MDBK / IC50 B. bigemina): ˃ 909
- Selective indices NIH/3 T3 (B. bigemina; EC50 NIH/3 T3 / IC50 B. bigemina): ˃ 909
- Selective indices HFF (B. bovis; EC50 HFF / IC50 B. bovis): ˃ 400
- Selective indices MDBK (B. bovis; EC50 MDBK / IC50 B. bovis): ˃ 400
- Selective indices NIH/3 T3 (B. bovis; EC50 NIH/3 T3 / IC50 B. bovis): ˃ 400
